Measured values published in PubChem BioAssay AID624268 (The Scripps Research Institute Molecular Screening Center, 2012).
The list shows a part of the results, in another mix than the full data. Active and inactive are the calls of the source.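 Rule for the calls: active = inhibition above a per-plate cutoff of the control wells' mean inhibition plus 3 SD (cut at about 5.5% in these data); inactive = the rest.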

test system: methionyl-tRNA synthetase (Trypanosoma brucei brucei); assay: T. brucei MetRS inhibitors, primary screen, biochemical, luminescence (AID 624268);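 note: 0% = DMSO wells median and 100% = median of wells with control inhibitor compound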; settings: purified T. brucei MetRS, ATP depletion, Kinase-Glo luminescence; at 11.9 µM; stronger effect = higher value
How it was run: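 Dosing: 11.9 µM compound single dose, 0.9% DMSO; Assay system: purified T. brucei MetRS enzyme; Measured by: Kinase-Glo luciferase luminescence reporting remaining unconsumed ATP; Schedule: 15 min plus 2 h at 25 °C.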

| SMILES | inhibition |
| --- | --- |
| O=P1(Nc2ccc(Br)cn2)COc2ccccc2OC1 | inactive: -0.18% |
| NS(=O)(=O)c1cccc(NC(=O)COC(=O)C(O)(c2ccccc2)c2ccccc2)c1 | inactive: -0.09% |
| O=[As](O)(c1cccs1)c1cccs1 | inactive: -1.17% |
| Cc1ccc(OCC(=O)OC2CN3CCC2CC3)cc1 (stereo not drawn) | inactive: 0.27% |
| Cc1ccc(S(=O)(=O)N(CCCN)CCCc2c(C)nc(N)[nH]c2=O)cc1 | inactive: 0.67% |
| O=P1(Nc2ncccn2)COc2ccccc2OC1 | inactive: -0.3% |
| CN(C)C1(CNC(=O)c2ccc(S(C)(=O)=O)cc2)CCCCC1 | inactive: -1.18% |
| CCCC1OP(=O)(Nc2ccccc2)OCC1CC (stereo not drawn) | inactive: -0.27% |
| O=C(/C=C/c1ccccc1)OC1CN2CCC1CC2 (stereo not drawn) | inactive: 0.3% |
| CC1CCC(C(C)C)C(OP(=O)(Nc2ccccn2)c2ccccc2)C1 (stereo not drawn) | inactive: -1.08% |
| Cc1ccc(C(=O)OC2CN3CCC2CC3)cc1 (stereo not drawn) | inactive: -0.94% |
| Cc1nn(-c2ccccc2)c2c1P(=O)(N1CCOCC1)N(C)C(c1ccccc1)=N2 (stereo not drawn) | inactive: -0.19% |
| CC(C)/C=N\N=C(\N)N[N+](=O)[O-] | inactive: 2.66% |
| CN(C(=O)Cc1ccc(Cl)c(Cl)c1)[C@@H]1CCCC[C@H]1N1CCCC1 | inactive: -0.09% |
| CC1(CBr)Cn2c(nc3ccccc3c2=O)S1 (stereo not drawn) | inactive: -0.57% |
| COc1ccccc1CNC(=O)COC(=O)C(O)(c1ccccc1)c1ccccc1 | inactive: -0.27% |
| CC(C)(C)C(=O)NC(Sc1ncccn1)C(Cl)(Cl)Cl (stereo not drawn) | inactive: -0.51% |
| O=P1(N(CCCl)CCCl)NCCC(C(F)(F)F)O1 (stereo not drawn) | inactive: -0.29% |
| Clc1n[nH]nc1-c1nn[nH][15n]1 | inactive: -0.76% |
| CCOP(=O)(NC(=NC(C)c1ccccc1)NC(C)c1ccccc1)OCC (stereo not drawn) | inactive: -0.85% |
| O=P1(Nc2ccccn2)COc2ccccc2OC1 | inactive: -1.15% |
| CCC1=CC2Cc3nc4ccc(Cl)cc4c(N)c3C(C1)C2 (stereo not drawn) | active: 78.8% |
| CN(CCCl)Cc1cc(Cl)c(NC2=NCCN2)c(Cl)c1 | inactive: -0.38% |
| CCOP(=O)(Nc1ccc(C)cn1)OCC | inactive: 0.18% |

| SMILES | inhibition |
| --- | --- |
| CCOP(=O)(Nc1cccc2ccccc12)OCC | inactive: -0.71% |
| COc1cc(C2NCCC3(OCCO3)C2(C)C)cc(OC)c1OC (stereo not drawn) | inactive: -1.21% |
| Nc1cccc2c([As](=O)(O)O)cccc12 | inactive: 0.48% |
| Cc1ccc(NCCc2c([N+](=O)[O-])cc([N+](=O)[O-])cc2[N+](=O)[O-])cc1 | inactive: -0.43% |
| CCCOP(=S)(Nc1nc(N)cc(=O)[nH]1)OCCC | inactive: 0.13% |
| O=[As](O)(c1cccc(O)c1)c1cccc(O)c1 | inactive: -0.5% |
| Cc1cccc(OCC(=O)OC2CN3CCC2CC3)c1 (stereo not drawn) | inactive: -0.1% |
| O=C(OC1CN2CCC1CC2)c1ccc(Cl)cc1 (stereo not drawn) | inactive: 0.4% |
| CS(=O)(=O)c1ccc(Cl)c(NC(=O)COC(=O)C(O)(c2ccccc2)c2ccccc2)c1 | inactive: 0.08% |
| COc1cc(C(=O)NCC2(N3CCOCC3)CCCCC2)cc(Cl)c1OC(C)C | inactive: -0.77% |
| O=[As](O)(O)c1cccnc1 | inactive: 0.01% |
| CN(C(=O)Cc1ccccc1)[C@@H]1CC[C@]2(CCCO2)C[C@H]1N1CCCC1 | inactive: -0.29% |
| CCOP1(=S)c2c(C)nn(CCC#N)c2N=C(c2ccc(F)cc2)N1C (stereo not drawn) | inactive: -1% |
| N#CCCN(C(=O)COC(=O)C(O)(c1ccccc1)c1ccccc1)c1ccc(F)cc1 | inactive: -0.48% |
| CN(C(=O)Cc1ccc(Cl)c(Cl)c1)[C@H]1CC[C@@]2(CCCO2)C[C@@H]1N1CCCC1 | inactive: -1.06% |
| CN(C)C(=O)c1cc([N+](=O)[O-])cc2c1-c1c(cc([N+](=O)[O-])cc1[N+](=O)[O-])C2=O | inactive: -1.42% |
| O=[N+]([O-])c1ccc2c(c1)nnn2O | inactive: -1.18% |
| NC(=O)Nc1ccc([As](=O)(O)O)cc1 | inactive: -0.23% |
| Nc1ccccc1[As](=O)(O)c1ccccc1 | inactive: -0.62% |
| O=C(O)COc1ccc([As](=O)(O)O)cc1[N+](=O)[O-] | inactive: -2.2% |
| O=P(Nc1nccs1)(c1ccccc1)c1nc2ccccc2s1 (stereo not drawn) | inactive: 0.15% |
| O=P(Nc1nccs1)(Oc1ccccc1)Oc1ccccc1 | inactive: -0.23% |
| CCOP1(=S)c2c(C)nn(CCC#N)c2N=C(c2ccccc2F)N1C (stereo not drawn) | inactive: -0.21% |
| CS(=O)(=O)c1cc([N+](=O)[O-])c2no[n+]([O-])c2c1 | inactive: 0.43% |
